Earlier results on one substance are cited in article PMC6904115 (Neuropharmacology, 2019).

The data set has as its system NK1R. The note with it: compared with endogenous opioids; ref Marvizon et al., 2003b; cited from earlier work.

Regarding neurokinin A, the “cleavage by peptidases” value was “much less readily”.
